Compound potency records, mixed from different reports. Data source: NIAID ChemDB in PubChem.

Shared fields: whole-cell or culture tests; organism: HIV-1; measure: fold resistance

Rows are shuffled and stem from different studies.

compound | strain | method | mutations | cells | value
Cc1ccc2cccc(-n3c(C)nnc3SCC(=O)Nc3ccc(S(N)(=O)=O)cc3Cl)c2n1 | NL4-3 | luciferase | RT-Y188L | HeLa + HeLa-JC53 | 390
CCN1C(=O)c2c(O)c(=O)c(C(=O)NCc3c(F)cc(F)cc3F)cn2[C@H]2CCOC[C@H]21 | - | luminescence | G140S/Q148R | MT-2 | 2.5
Cc1cc(-n2c(C)nnc2SCC(=O)Nc2ccccc2Br)c2ccccc2c1C | NL4-3 | luciferase | RT-K103N Y181C | HeLa + HeLa-JC53 | 62
CCOCn1c(Sc2cc(C)cc(C)c2)c(CC)c(=O)[nH]c1=O | IIIB | syncytia | RT-Y188H | CEM | 2225
Cc1cc(S(N)(=O)=O)ccc1NC(=O)COc1ccc(Cl)cc1C(=O)c1cc(Cl)cc(C#N)c1 | HXB2 | β-galactosidase | RT-V108I | HeLa + HELA CD4+ | ~1
O=C1Nc2ccc(Cl)cc2C(C#Cc2ccoc2)(C(F)(F)F)O1 | - | - | RT-K103N | - | 72
CCc1c(C)[nH]c(=O)c(N)c1Sc1cc(C)cc(C)c1 | N119(RT-Y181C) | cytopathic effect / MTT | RT-Y181C | CEM + CEM-SS | 26.4
Cc1cc(C#N)cc(C(=O)c2ccccc2OCC(=O)Nc2ccc(S(N)(=O)=O)cc2C)c1 | - | β-galactosidase | RT-L100I K103N | HeLa MAGI + HeLa | 10
CC(C)=CCOc1cc(NC(=S)c2ccoc2C)ccc1Cl | NL4-3 | p24 | RT-V179D | CEM + CEM-SS | 1.33
O=C1Nc2ccc(F)c(F)c2C(C#Cc2ccco2)(C(F)(F)F)O1 | - | - | RT-K103N | - | 125
N#C[C@]1(CO)O[C@@H](n2cnc3c(N)ncnc32)C[C@@H]1O | 3TC-resistant (RT M184V) | β-galactosidase | RT-M184V | MAGI | 53
CCc1c(Sc2cc(C)cc(C)c2)n(COCc2ccccc2)c(=S)[nH]c1=O | IIIB | syncytia | RT-Y181I | CEM | 40
CCOCn1c(Cc2ccccc2)c(C#N)c(=O)[nH]c1=O | - | - | RT-Y181C | - | >10
CCCCCCCCCCCCCCCCCCOC[C@H](COP(=O)(O)C(=O)O)OCC | LAI | p24 | RT-K65R | MT-2 | 3.18
CCc1c(Sc2cc(C)cc(C)c2)n(COCCO)c(=S)[nH]c1=O | IIIB | syncytia | RT-E138K | CEM | 10
Cc1cc(C#N)cc(C(=O)c2cc(Cl)ccc2OCC(=O)Nc2ccc(OCCCN3CC=CC3)cc2C)c1 | HXB2 | β-galactosidase | RT-P225H | HeLa + HELA CD4+ | ~1
CCC1=C(C(=O)Nc2ccc(Cl)c(C(=O)OCC(C)C)c2)SCCO1 | PYR-resistant (RT Y181C) | syncytia | RT-Y181C | CEM | 12
CCN1c2ncc(CCOc3ccc(-c4ccc(N)c(C(=O)O)c4)cc3C)cc2C(=O)N(C)c2cccnc21 | - | p24 | RT-K103N Y181C | C8166 | 1
Cc1cc(C#N)cc(C(=O)c2cc(Cl)ccc2OCC(=O)Nc2cnc(S(N)(=O)=O)cc2C)c1 | HXB2 | β-galactosidase | RT-V106A Y181C | HeLa + HELA CD4+ | ~1
CCCCCCCCCCCCCCCC(=O)Nc1ccn([C@H]2CC[C@@H](COP(=O)(O)O[C@H]3C[C@H](n4cc(C)c(=O)[nH]c4=O)O[C@@H]3CO)O2)c(=O)n1 | Calo-resistant (RT T139I) | cytopathic effect / XTT | Calanolide-resistant (RT T139I) | CEM + CEM-SS | 3.25
Cc1ccc(C2CC2)c(-c2ccc3c(c2C)CCCO3)c1[C@H](OC(C)(C)C)C(=O)O | NL4-3 | luminescence | PI-resistant ARP-4596 (L10R/M46I/L63P/V82T/I84V) | MT-4 | 1
O=C1Nc2ccc(Cl)cc2C(C#Cc2cccnc2)(C(F)(F)F)O1 | - | - | RT-K103N | - | 1.42
CCOCn1c(Cc2ccccc2)c(I)c(=O)[nH]c1=O | - | - | RT-Y181C | - | 476
Cc1occc1C(=S)Nc1ccc(Cl)c(C(=O)OC(C)C)c1 | 4XAZT/Y181C (RT D67N K70R Y181C T215Y K219Q) | cytopathic effect / XTT | RT-D67N K70R Y181C T215Y K219Q | CEM + CEM-SS | 13.3
Nc1nc(NC2CC2)c2ncn([C@H]3C=C[C@@H](CO)C3)c2n1 | HXB2D (RT K70E recombinant) | cytopathic effect / XTT | RT-K70E | MT-2 | 1.75
CC(C)=CCN1CC(C)Cn2c(=S)[nH]c3cccc1c32 | N119(RT-Y181C) | cytopathic effect / XTT | RT-Y181C | CEM(SS) + CEM-SS | >54.4
Cc1occc1C(=S)Nc1ccc(Cl)c(/C=N/OC(C)(C)C)c1 | 4xAZT/L100I(RT-D67N K70R T215Y K219Q L100I) | cytopathic effect / XTT | RT-D67N K70R L100I T215Y K219Q | CEM + CEM-SS | 12.5
Cc1cc(C)cc(Cc2c(C(C)C)c(=O)[nH]c(=O)n2COCCO)c1 | IIIB | syncytia | RT-E138K | CEM | 3.12
Nc1nc(NC2CC2)c2ncn([C@H]3CO[C@@H](CO)O3)c2n1 | HXB2(RT-K65R) Recombinant | RT activity | RT-K65R | MT-2 | 1.9
Cc1ccc(-n2c(C)nnc2SCC(=O)Nc2ccc(C(C)C)cc2Br)cc1 | NL4-3 | luciferase | RT-K103N Y181C | HeLa + HeLa-JC53 | >71
CCc1c(Sc2ccccc2)n(COCc2ccccc2)c(=O)[nH]c1=O | IIIB | syncytia | RT-Y181C | CEM | 205
CCN1c2ncc(CCOc3ccc(-c4cccc(C(=O)O)c4)cc3)cc2C(=O)N(C)c2cccnc21 | - | p24 | RT-K103N Y181C | C8166 | >1
CC=CCOc1cc(NC(=S)c2ccoc2C)ccc1OC | NL4-3 | cytopathic effect / XTT | RT-V106A | CEM + CEM-SS | 20
Cc1cccc(Sc2c(C)c[nH]c(=O)c2N)c1 | N119(RT-Y181C) | cytopathic effect / MTT | RT-Y181C | CEM + CEM-SS | >1490
Cc1nnc(SCC(=O)Nc2ccccc2Br)n1-c1ccc(Cl)c2ccccc12 | NL4-3 | luciferase | RT-K103N Y181C | HeLa + HeLa-JC53 | 162
O=C(O[C@@H]1[C@H](OC(=O)c2ccccc2)[C@@H](CO)O[C@H]1n1cnc2c(N(C(=O)c3ccccc3)C(=O)c3ccccc3)ncnc21)c1ccccc1 | NL4-3 | β-galactosidase | T215Y | HeLaP4 | 1.07
C=C(C)[C@@H]1CC[C@]2(C(=O)NCCCCCCCC(=O)N[C@@H](CC(C)C)[C@@H](O)CC(=O)O)CC[C@]3(C)[C@H](CC[C@@H]4[C@@]5(C)CC[C@H](O)C(C)(C)[C@@H]5CC[C@]43C)[C@@H]12 | LAI | syncytia | I84S | HeLa P4 + HeLa | >200
COc1ccnc2[nH]cc(C(=O)C(=O)N3CCN(C(=O)c4ccccc4)C[C@H]3C)c12 | LAI(GP120-V68A) Recombinant | RT activity | GP120-V68A | MT-2 | <4
Cc1cc(C)cc(S(=O)(=O)c2c(C(=O)NCCO)[nH]c3ccc(Cl)cc23)c1 | EFV-resistant (RT K103R V179D P225H) | p24 | RT-K103R V179D P225H | C8166 | 100
O=C1Nc2ccc(F)cc2C(C#Cc2cccs2)(C(F)(F)F)O1 | - | - | RT-K103N | - | 28.5
CCOC(=O)c1cc(NC(=O)C2=C(C)OCCS2)ccc1Cl | TIBO-resistant (RT L100I) | syncytia | RT-L100I | CEM | 75
CN(C)C1=C(C#N)/C(=C2/C(C#N)=C(N(C)C)N(c3ccc([N+](=O)[O-])cc3)c3c2n(C)c2ccccc32)c2c(c3ccccc3n2C)N1c1ccc([N+](=O)[O-])cc1 | HEPT-resistant (RT P236L) | cytopathic effect / XTT | RT-P236L | CEM + CEM-SS | 1.18
CC(C)=CCOc1cc(NC(=S)c2ccoc2C)ccc1Cl | Thiazolobenzimidazole-resistant (RT V108I) | cytopathic effect / XTT | RT-V108I | CEM + CEM-SS | 10
O=C(COc1ccc(Cl)cc1C(=O)c1ccccc1)Nc1ccc2cn[nH]c2c1 | HXB2 | β-galactosidase | RT-K103N | HeLa + HELA CD4+ | ~1
O=C1Nc2ccc(F)c(F)c2[C@@](/C=C/C2CC2)(C(F)(F)F)N1 | - | - | RT-Y181C | - | <6.32
CCOCn1c(Cc2ccccc2)c(CO)c(=O)[nH]c1=O | - | - | RT-Y181C | - | >4.55
O=C1CC(C#CC2CC2)(C(F)(F)F)c2cc(Cl)ccc2N1 | - | - | RT-K103N | - | 12.64
CCN1c2ncc(CCOc3ccc(-c4ccncc4)cc3)cc2C(=O)N(C)c2cccnc21 | - | p24 | RT-K103N Y181C | C8166 | >1
N#Cc1cc(Cl)cc(Oc2c(Br)ccc(CC(=O)Nc3ccc(S(N)(=O)=O)cc3Cl)c2F)c1 | - | - | Y188L | MT-4 | 26
O=C1Nc2ccc(Cl)cc2C(C#Cc2ccsc2)(C(F)(F)F)O1 | - | - | RT-K103N | - | 48.1
CC1=C(C(=O)Nc2cccc(C(=O)OC(C)C)c2)SCCO1 | TIBO-resistant (RT L100I) | syncytia | RT-L100I | CEM | 2.25
CCN1c2ncc(CCOc3ccc(-c4ccc(C(=O)O)c[n+]4[O-])cc3C)cc2C(=O)N(C)c2cccnc21 | - | p24 | RT-K103N Y181C | C8166 | 1
C=CCO/N=C/c1cc(NC(=S)c2ccoc2C)ccc1Cl | 4XAZT/Y181C (RT D67N K70R Y181C T215Y K219Q) | cytopathic effect / XTT | RT-D67N K70R Y181C T215Y K219Q | CEM + CEM-SS | 42.9
CCc1c(C(=O)c2cc(C)cc(C)c2)n(CC2CC=CC2)c(=O)[nH]c1=O | IIIB SJ-3366 P4 (RT Y181C) | - | RT-Y181C | - | 15
CCN1C(=O)c2c(O)c(=O)c(C(=O)NCc3ccc(F)c(Cl)c3F)cn2[C@H]2CCO[C@H]21 | - | luminescence | E138K/Q148K | MT-2 | 2.3
NS(=O)(=O)c1ccc(NC(=O)CSc2nnc(C(F)(F)F)n2-c2ccc(Cl)c3ccccc23)c(Cl)c1 | NL4-3 | luciferase | RT-Y188L | HeLa + HeLa-JC53 | 10
CC(C)=CCOc1cc(NC(=S)c2ccsc2C)ccc1Cl | HEPT-resistant (RT P236L) | cytopathic effect / XTT | RT-P236L | CEM + CEM-SS | 2.5
Cc1ccc2cccc(-n3c(SCC(=O)Nc4ccc(S(N)(=O)=O)cc4Cl)nnc3C(F)(F)F)c2n1 | NL4-3 | luciferase | RT-Y188L | HeLa + HeLa-JC53 | 37
CCN1c2ncc(CCOc3ccc(C(=O)NS(C)(=O)=O)cc3C)cc2C(=O)N(C)c2cccnc21 | - | p24 | RT-K103N Y181C | C8166 | >1
CSC(=Nc1ccc(Cl)c(C(=O)OC(C)C)c1)OC(C)C | - | syncytia | RT-E138K | CEM | >1
CCCCOC(=O)c1cc(NC(=O)C2=C(C)OCCS2)ccc1Cl | TIBO-resistant (RT L100I) | syncytia | RT-L100I | CEM | 17.5
Cc1ccc(NC(=O)CSc2nnc(C)n2-c2ccc(C(F)(F)F)cc2)c(Cl)c1 | NL4-3 | luciferase | RT-K103N Y181C | HeLa + HeLa-JC53 | 12
CC(C)[C@H](NC(=O)OCc1ccccn1)C(=O)N[C@@H](Cc1ccccc1)[C@@H](O)C[C@H](Cc1ccccc1)NC(=O)OCc1cccnc1 | NL4-3 | p24 | PR-I84V | MT-4 | 1
CCN1c2ncccc2NC(=O)c2cc(CCOc3ccc(-c4ccc(CC(=O)O)cc4)cc3C)cnc21 | - | p24 | RT-K103N Y181C | C8166 | >1
CCC(=O)c1ccc(F)c([C@@H]2C[C@@H]2NC(=O)Nc2ccc(C#N)cn2)c1O | LAI | β-galactosidase / luminescence | NNRTI-resistant (RT L100I) | TZM-bl | 7.4
Cc1occc1C(=S)Nc1ccc(Cl)c(C(=O)OCC2CC2)c1 | NL4-3 | cytopathic effect / XTT | RT-V179D | CEM + CEM-SS | 10
CC1=C(C(=O)Nc2ccc(C)c(C(=O)OC(C)C)c2)SCCO1 | TIBO-resistant (RT L100I) | syncytia | RT-L100I | CEM | 15.6
Cc1cc(S(N)(=O)=O)ccc1NC(=O)COc1ccc(Cl)cc1C(=O)c1cc(F)cc(C#N)c1 | HXB2 | β-galactosidase | RT-K103N V108I | HeLa + HELA CD4+ | ~1
CCN1c2ncc(CCOc3ccc(C(=O)NCC(CC)(CC)C(=O)O)cc3C)cc2C(=O)N(C)c2cccnc21 | - | p24 | RT-K103N Y181C | C8166 | >1
Cc1cc(S(N)(=O)=O)ccc1NC(=O)COc1ccc(Cl)cc1C(=O)c1cc(F)cc(C(F)(F)F)c1 | HXB2 | β-galactosidase | RT-Y181C | HeLa + HELA CD4+ | ~1
C[C@@H]1CCO[C@H]2Cn3cc(C(=O)NCc4ccc(F)cc4F)c(=O)c(O)c3C(=O)N12 | NL4-3 | RT activity | E138K/R263K | CBMC | 2.4
CCC1=C(C(=O)Nc2ccc(Cl)c(C(=O)OC(C)C)c2)SCCO1 | TSAO-resistant (RT E138K) | syncytia | RT-E138K | CEM | 15
CCN1c2ncc(CCOc3cccc4c3ccc[n+]4[O-])cc2C(=O)N(C)c2ccc(Cl)nc21 | - | p24 | RT-K103N Y181C | C8166 | 27.5
COC(=O)[C@H](C)NP(=O)(OC[C@@H]1C=C[C@H](n2cc(C)c(=O)[nH]c2=O)O1)Oc1ccc(Cl)cc1 | RTMDR | p24 | RT M41L L74V T215Y V106N | PBMC | 62
CCN1c2ncc(CCOc3ccc(-c4cocn4)cc3C)cc2C(=O)N(C)c2cccnc21 | - | p24 | RT-K103N Y181C | C8166 | 1
FC(F)(Sc1ncccn1)c1nc2ccccc2o1 | Diphenyl sulfone | - | RT-Y181C | - | >3.18
Cc1cc2[nH]cnc2cc1NC(=O)COc1ccc(Cl)cc1C(=O)c1cc(F)cc(C(F)(F)F)c1 | HXB2 | β-galactosidase | RT-V106I Y181C | HeLa + HELA CD4+ | ~1
CCN1c2ncc(CCOc3ccc(-c4cc(C(=O)O)on4)cc3C)cc2C(=O)N(C)c2cccnc21 | - | p24 | RT-K103N Y181C | C8166 | 1

Fold resistance has wild type as its base. Blank or dashed fields: not listed here.